PubChem BioAssay AID624099 – ICCB-Longwood, 2012
In all, the deposit lists about 21,000 reagents; this is a part drawn at random. Over the whole deposit, 497 (2.4%) are marked active. 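Higher z means weaker E2 silencing; only reporter increases were scored, and knock-downs that hurt cell survival may mask genuine repressor factors.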 Reagents against one gene are numbered here.

- Screen: 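Host factors E2 relies on to silence an HPV18 LCR reporter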 (primary screen)
- Cell system: human C33A cervical carcinoma cells (HPV-negative) stably expressing BPV1 E2 and an HPV18 LCR luciferase reporter
- Reagents: siRNA pool against human genes, 40 nM
- Duration: 72 h
- Detection: 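HPV18 LCR reporter light per well, converted to plate-wise z-scores that exclude control wells, and averaged over triplicate plates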
- Direction: mean z-score and z-score: higher = stronger reporter signal, weaker E2 silencing
- Call rule: 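Hit if mean z-score reaches 2 and two or more of three replicate z-scores also reach 2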

Gene | pool no. | mean z-score | z-score, replicate A | z-score, replicate B | z-score, replicate C | Call
EFCAB11 (EF-hand calcium binding domain 11) | 1 | -0.65 | -0.71 | -0.95 | -0.28 | inactive
NAP1L4 (nucleosome assembly protein 1 like 4) | 1 | -0.68 | -0.6 | -0.73 | -0.71 | inactive
UBE2M (ubiquitin conjugating enzyme E2 M) | 1 | -0.66 | -0.16 | -0.66 | -1.16 | inactive
GK5 (glycerol kinase 5) | 1 | -0.08 | -0.21 | -0.25 | 0.22 | inactive
COL2A1 (collagen type II alpha 1 chain) | 1 | 0.78 | 0.98 | 0.55 | 0.81 | inactive
ACTL7A (actin like 7A) | 1 | -0.29 | -0.4 | -0.23 | -0.25 | inactive
ATL1 (atlastin GTPase 1) | 1 | -0.19 | -0.14 | -0.2 | -0.25 | inactive
KIAA1671 | 1 | -0.39 | -0.56 | -0.48 | -0.12 | inactive
LOC389239 (retired record) | 1 | 0.06 | 0.43 | -0.4 | 0.15 | inactive
LOC401922 (retired record) | 1 | -0.56 | -0.29 | -0.59 | -0.8 | inactive
MSL2 (MSL complex subunit 2) | 1 | -0.89 | -0.96 | -0.9 | -0.82 | inactive
INF2 (inverted formin 2) | 1 | -0.18 | -0.23 | 0.08 | -0.38 | inactive
INF2 (inverted formin 2) | 2 | 0.46 | 0.7 | 0.27 | 0.4 | inactive
MESTP4 (mesoderm specific transcript pseudogene 4) | 1 | 0.43 | 0.28 | 0.32 | 0.7 | inactive
GABRR2 (gamma-aminobutyric acid type A receptor subunit rho2) | 1 | -0.5 | -0.33 | -0.65 | -0.52 | inactive
LINC00927 (long independently transcribed non-coding RNA 927) | 1 | 0.13 | -0.07 | 0.19 | 0.26 | inactive
NAA16 (N-alpha-acetyltransferase 16, NatA auxiliary subunit) | 1 | -0.13 | -0.52 | -0.52 | 0.65 | inactive
LOC400340 (retired record) | 1 | -0.14 | -0.27 | -0.74 | 0.58 | inactive
GATD1 (glutamine amidotransferase class 1 domain containing 1) | 1 | -0.15 | -0.2 | -0.29 | 0.03 | inactive
SLC14A2 | 1 | 0.68 | 0.39 | 1.25 | 0.4 | inactive
RAB18 (RAB18, member RAS oncogene family) | 1 | -0.25 | -0.38 | -0.24 | -0.12 | inactive
TRPS1 (transcriptional repressor GATA binding 1) | 1 | 0.06 | 0.03 | 0 | 0.15 | inactive
PRSS22 (serine protease 22) | 1 | 0.57 | 0.72 | 0.55 | 0.43 | inactive
TMEM168 (transmembrane protein 168) | 1 | -0.74 | -0.78 | -0.81 | -0.64 | inactive
C1QL2 (complement C1q like 2) | 1 | 0.18 | 0.37 | -0.18 | 0.35 | inactive
SPINK1 (serine peptidase inhibitor Kazal type 1) | 1 | -0.05 | -0.27 | 0.06 | 0.05 | inactive
COL15A1 (collagen type XV alpha 1 chain) | 1 | 0.34 | 0.32 | 0.43 | 0.28 | inactive
XPOT (exportin for tRNA) | 1 | -0.44 | -0.3 | -0.35 | -0.68 | inactive
TIPE2 (TNF alpha induced protein 8 like 2) | 1 | -0.26 | -0.3 | -0.41 | -0.07 | inactive
ODAPH (odontogenesis associated phosphoprotein) | 1 | -0.29 | -0.48 | -0.22 | -0.17 | inactive
PGM2L1 (phosphoglucomutase 2 like 1) | 1 | -0.24 | -0.13 | -0.45 | -0.14 | inactive
CAPN1 (calpain 1) | 1 | 2.18 | 1.69 | 2.52 | 2.32 | active
SIK2 (salt inducible kinase 2) | 1 | -0.78 | -0.43 | -0.95 | -0.96 | inactive
TMEM45A (transmembrane protein 45A) | 1 | 0.65 | 0.98 | 0.61 | 0.35 | inactive
CD40 (CD40 molecule) | 1 | -0.74 | -0.73 | -0.64 | -0.86 | inactive
LIN9 (lin-9 DREAM MuvB core complex component) | 1 | -1.21 | -1.74 | -0.86 | -1.04 | inactive
UMODL1 (uromodulin like 1) | 1 | -0.69 | -0.67 | -0.72 | -0.68 | inactive
UNC5B (unc-5 netrin receptor B) | 1 | -0.32 | -0.22 | -0.47 | -0.26 | inactive
MYH16 (myosin heavy chain 16) | 1 | -0.11 | -0.44 | 0.03 | 0.1 | inactive
GLUD1P4 (glutamate dehydrogenase 1 pseudogene 4) | 1 | 0.31 | 0.55 | 0.16 | 0.22 | inactive
SOCS7 (suppressor of cytokine signaling 7) | 1 | -1.07 | -1.07 | -1.16 | -0.98 | inactive
LRRC71 (leucine rich repeat containing 71) | 1 | -0.99 | -0.89 | -1.03 | -1.06 | inactive
TCF25 (TCF25 ribosome quality control complex subunit) | 1 | -0.43 | -0.22 | -0.5 | -0.58 | inactive
PDE8A (phosphodiesterase 8A) | 1 | 0.15 | 0.25 | 0.41 | -0.21 | inactive
CACNG2 (calcium voltage-gated channel auxiliary subunit gamma 2) | 1 | -0.28 | -0.61 | -0.05 | -0.18 | inactive
PHB2 (prohibitin 2) | 1 | -0.79 | -0.9 | -0.81 | -0.65 | inactive
DCN (decorin) | 1 | 0.18 | 0.36 | 0.1 | 0.08 | inactive
CSDC2 (cold shock domain containing C2) | 1 | -0.65 | -0.39 | -0.59 | -0.95 | inactive
DUSP9 (dual specificity phosphatase 9) | 1 | 0.27 | 0.24 | 0.34 | 0.24 | inactive
EFTUD2 (elongation factor Tu GTP binding domain containing 2) | 1 | -0.45 | -0.41 | -0.7 | -0.25 | inactive
PACS1 (phosphofurin acidic cluster sorting protein 1) | 1 | 1.09 | 0.95 | 1.14 | 1.19 | inactive
FBLN1 (fibulin 1) | 1 | -0.46 | -0.42 | -0.57 | -0.38 | inactive
LOC400541 | 1 | 1.5 | 1.34 | 1.52 | 1.63 | inactive
RPL5P18 (ribosomal protein L5 pseudogene 18) | 1 | -0.71 | -0.62 | -0.82 | -0.68 | inactive
CHN2 (chimerin 2) | 1 | 0.51 | 0.51 | 0.58 | 0.43 | inactive
ATP6V1G3 (ATPase H+ transporting V1 subunit G3) | 1 | 0.02 | 0.03 | 0 | 0.02 | inactive
OR10A3 (olfactory receptor family 10 subfamily A member 3) | 1 | 0.84 | 0.98 | 0.83 | 0.7 | inactive

5 entries from above, ordered by “z-score, replicate A”, high to low.
Gene | pool no. | mean z-score | z-score, replicate A | z-score, replicate B | z-score, replicate C | Call
PRSS22 (serine protease 22) | 1 | 0.57 | 0.72 | 0.55 | 0.43 | inactive
SLC14A2 | 1 | 0.68 | 0.39 | 1.25 | 0.4 | inactive
TRPS1 (transcriptional repressor GATA binding 1) | 1 | 0.06 | 0.03 | 0 | 0.15 | inactive
GATD1 (glutamine amidotransferase class 1 domain containing 1) | 1 | -0.15 | -0.2 | -0.29 | 0.03 | inactive
RAB18 (RAB18, member RAS oncogene family) | 1 | -0.25 | -0.38 | -0.24 | -0.12 | inactive
